Reference: paper PMC9505826, “A Peptide Inhibitor of the Human Cytomegalovirus Core Nuclear Egress Complex” (Pharmaceuticals, 2022)

System: HCMV AD169
Format: cell-based, human cytomegalovirus (HCMV strain AD169)
Procedure: Primary human foreskin fibroblasts (HFFs) were cultivated in minimal essential medium (MEM). Cell culture media were supplemented with 1× GlutaMAXTM (35050038, Thermo Fisher Scientific), […] gentamicin and 10% fetal bovine serum (FBS, F7524, Sigma Aldrich). All cells were incubated at 37 °C, 5% CO2 and 80% humidity. For infection with human cytomegalovirus (HCMV strain AD169), 2 × 10^5 HFFs were seeded in 12-well plates for 1 day (d) prior to infection at a multiplicity of infection (MOI) of 0.1. After 90 min of viral absorption, cells were incubated with peptides in the culture media media, which was supplemented with 2.5% FBS, 1× GlutaMAX^TM and 10 µg/mL gentamicin, at the indicated concentrations at 37 °C for 4–8 days. Viral supernatants were collected at 4, 6 and 8 days post-infection (d.p.i.).
HFFs were seeded in 12-well plates, used for HCMV infection at a MOI of 0.1 and treated with the indicated concentrations of each peptide. […] The amount of extracellular viral genomic loads was assessed in […] of each sample by real-time PCR (TaqMan-PCR). Two primers, namely 5′CMV ([…]) and 3′CMV ([…]), which anneal to a sequence within the major immediate early gene region of HCMV, were obtained to amplify and quantify the viral genome. […] HCMV genome equivalents from peptide-treated viral supernatants were calculated as % of the negative control.

SMILES: CC[C@H](C)[C@H](NC(=O)[C@H](C)NC(=O)[C@H](CCSC)NC(=O)[C@H](CCCCN)NC(=O)[C@H](CCSC)NC(=O)[C@H](CCSC)NC(=O)[C@H](CC(N)=O)NC(=O)[C@H](CC(C)C)NC(=O)[C@H](Cc1ccc(O)cc1)NC(=O)[C@H](CCCCN)NC(=O)[C@H](CC(C)C)NC(=O)[C@H](CCC(=O)O)NC(=O)[C@H](CC(C)C)NC(=O)[C@H](CCC(=O)O)NC(=O)[C@@H]1CCCN1C(=O)[C@H](Cc1c[nH]cn1)NC(=O)[C@H](CCC(=O)O)NC(=O)[C@H](CCCNC(=N)N)NC(=O)[C@H](Cc1ccccc1)NC(=O)[C@@H](NC(=O)[C@H](CC(=O)O)NC(=O)[C@H](Cc1c[nH]cn1)NC(=O)[C@H](CC(C)C)NC(=O)[C@H](CC(=O)O)NC(=O)[C@H](Cc1c[nH]cn1)NC(=O)[C@H](CC(C)C)NC(=O)[C@@H](NC(=O)[C@H](CC(C)C)NC(=O)COCCOCCNC(=O)[C@@H]1CCCN1C(=O)[C@@H]1CCCN1C(=O)[C@H](CCCNC(=N)N)NC(=O)[C@H](CCCNC(=N)N)NC(=O)[C@H](CCCNC(=N)N)NC(=O)[C@H](CCC(N)=O)NC(=O)[C@H](CCCNC(=N)N)NC(=O)[C@H](CCCNC(=N)N)NC(=O)[C@H](CCCCN)NC(=O)[C@H](CCCCN)NC(=O)[C@H](CCCNC(=N)N)NC(=O)CNC(=O)[C@H](Cc1ccc(O)cc1)NC(=O)COCCOCCNC(=O)[C@H](CCCNC(=N)N)NC(=O)[C@H](CCC(N)=O)NC(=O)[C@H](CCCNC(=N)N)NC(=O)[C@H](CCCNC(=N)N)NC(=O)[C@H](CCCCN)NC(=O)[C@H](CCCNC(=N)N)NC(=O)[C@H](CC(C)C)NC(=O)[C@H](CC(C)C)NC(=O)[C@H](CO)NC(=O)[C@H](CCCNC(=N)N)NC(C)=O)[C@@H](C)O)[C@@H](C)CC)C(=O)N[C@H](C(N)=O)[C@@H](C)O [NLS-CPP-Hook]
- SI, selectivity index (CC50/EC50) (CC50 (HFF, Neutral Red) / EC50 (HCMV qPCR)): 7.9
- EC50 relative to the IC50 value of the hook peptide for inhibition of the pUL50–pUL53 interaction in vitro (EC50 of NLS-CPP-Hook (Table 2) versus IC50 of the hook peptide (Table 1)): approximately 45 fold
